PubChem BioAssay AID624099 – ICCB-Longwood, 2012

- Purpose: 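Host factors E2 relies on to silence an HPV18 LCR reporter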 (primary screen)
- System: human C33A cervical carcinoma cells (HPV-negative) stably expressing BPV1 E2 and an HPV18 LCR luciferase reporter
- Reagents: siRNA pool against human genes, 40 nM
- Timing: 72 h
- Measured: 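Per-well luciferase luminescence, z-scored on each plate against the plate mean and SD with control wells left out, then averaged across three replicate plates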
- Scale: mean z-score and z-score: higher = stronger reporter signal, weaker E2 silencing
- Active means: 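Hit if mean z-score reaches 2 and two or more of three replicate z-scores also reach 2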
The deposit covers about 21,000 reagents; this is a part drawn at random. 497 of all reagents (2.4%) count as active. 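Higher z means weaker E2 silencing; only reporter increases were scored, and knock-downs that hurt cell survival may mask genuine repressor factors.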

gene | mean z-score | z-score, replicate A | z-score, replicate B | z-score, replicate C | activity call
PTBP2 (polypyrimidine tract binding protein 2) | 0.16 | 0.07 | 0.27 | 0.14 | inactive
ADSS1 (adenylosuccinate synthase 1) | 0.94 | 0.87 | 0.92 | 1.02 | inactive
EMC8 (ER membrane protein complex subunit 8) | -1.42 | -1.37 | -1.56 | -1.32 | inactive
WDR76 (WD repeat domain 76) | -0.24 | -0.37 | -0.34 | -0.01 | inactive
IFNGR1 (interferon gamma receptor 1) | 1.56 | 1.33 | 1.79 | 1.57 | inactive
TRPM6 | 1.61 | 1.17 | 2.02 | 1.65 | inactive
GBA2 (glucosylceramidase beta 2) | 0.73 | 0.08 | 0.45 | 1.66 | inactive
UQCC4 (ubiquinol-cytochrome c reductase complex assembly factor 4) | 1.34 | 0.51 | 1.79 | 1.72 | inactive

Just “z-score, replicate C”, for 3 of the entries above:
PTBP2 (polypyrimidine tract binding protein 2): 0.14
ADSS1 (adenylosuccinate synthase 1): 1.02
EMC8 (ER membrane protein complex subunit 8): -1.32

The results go on.
gene | mean z-score | z-score, replicate A | z-score, replicate B | z-score, replicate C | activity call
PACRG (parkin coregulated) | -1.1 | -1.02 | -1.06 | -1.22 | inactive
CUL3 (cullin 3) | -1.35 | -1.53 | -1.27 | -1.24 | inactive
TMEM161A (transmembrane protein 161A) | -0.42 | -0.57 | -0.42 | -0.27 | inactive
NEDD4L (NEDD4 like E3 ubiquitin protein ligase) | -0.02 | 0.11 | 0.06 | -0.22 | inactive
MTF2 (metal response element binding transcription factor 2) | 3.39 | 3.63 | 3.24 | 3.3 | active
RABEP1 (rabaptin, RAB GTPase binding effector protein 1) | 0 | -0.14 | 0.15 | -0.02 | inactive
APOBEC3G (apolipoprotein B mRNA editing enzyme catalytic subunit 3G) | 0.96 | 0.91 | 0.74 | 1.24 | inactive
C8orf76 (chromosome 8 open reading frame 76) | -0.35 | -0.62 | -0.02 | -0.41 | inactive
STARD7-AS1 (STARD7 antisense RNA 1) | -0.43 | 0 | -0.98 | -0.3 | inactive
FAM90A6P (family with sequence similarity 90 member A6, pseudogene) | 0.69 | 0.8 | 0.53 | 0.74 | inactive
VIPAS39 | -1.08 | -0.76 | -1.23 | -1.26 | inactive
MRFAP1L2 (Morf4 family associated protein 1 like 2) | -0.85 | -0.79 | -0.58 | -1.2 | inactive
REXO2 (RNA exonuclease 2) | -1.64 | -1.69 | -1.65 | -1.58 | inactive
GOLGA4 (golgin A4) | 0.24 | 0.32 | 0.02 | 0.38 | inactive
SAG (S-antigen visual arrestin) | 0.54 | 0.79 | 0.42 | 0.42 | inactive
